Measured values from several laboratories, pooled; numbers as filed in NIAID ChemDB.

All rows: enzyme or target tests; species: HIV-1; protein: Reverse transcriptase; measure: inhibition

Blank or dashed fields: not listed here. Lines come from different laboratories, so protocols vary. Percent inhibition refers to the dose given; in toxicity tests it is the harm to the cells.

smiles | strain or isolate | mutations | method | setting | tested at | value
CCN1c2nc(Cl)ccc2NC(=O)c2cc(CCc3cccc(NS(C)(=O)=O)c3)cnc21 | - | RT-Y181C | nucleotide incorporation / radiometric | - | 1 µM | 70%
CC(C)Nc1cccnc1N1CCN(C(=O)c2cc3cc(N)ccc3[nH]2)CC1 | - | - | nucleotide incorporation | - | 100 µM | 83%
CCN1c2ncccc2C(=O)Nc2c(COc3ccccc3)cc(OC)nc21 | WT | - | - | - | 44 µM | 1%
COc1cccc(CSc2nc(Cl)cc(Cc3ccccc3)n2)c1 | - | - | ELISA | - | 100 µM | 0%
CCN1c2ncccc2C(=O)Nc2c(COCc3ccccc3)cc(=O)[nH]c21 | WT | - | - | - | 83 µM | 1%
CCCC(C)c1cc2c(=O)cc(C(=O)OC)[nH]c2c2c(=O)cc(C(=O)OC)[nH]c12 | - | - | nucleotide incorporation | - | 100 µM | 68%
CCN1c2ncc(C3(c4ccccc4)CO3)cc2C(=O)N(C)c2ccc(Cl)nc21 | - | RT-Y181C | nucleotide incorporation / radiometric | - | 1 µM | 76%
O=C(OC1[C@H](O)CC(OC(=O)c2cc(O)c(O)c(O)c2)(C(=O)O)C[C@H]1O)c1cc(O)c(O)c(O)c1 | - | - | nucleotide incorporation | - | 20 µg/mL | 0%
Clc1cc(Cc2ccccc2)nc(SCCc2ccccc2)n1 | - | - | ELISA | - | 100 µM | 0%
CCN1c2ncccc2C(=O)Nc2c(COCc3ccccc3)cc(-c3cccc(OC)c3)nc21 | - | RT-Y181C | - | - | 12 µM | 1%
CCn1c2ccccc2c2ccc(N)nc21 | - | - | nucleotide incorporation / fluorescence | - | 100 µM | 23%
CCN1c2ncc(CCc3ccncc3)cc2C(=O)N(C)c2ccc(C#N)nc21 | - | RT-Y181C | nucleotide incorporation / radiometric | - | 1 µM | 82%
O=C(OC1[C@H](O)CC(O)(C(=O)O)C[C@H]1O)c1cc(O)c(O)c(O)c1 | - | - | nucleotide incorporation | - | 20 µg/mL | 0%
CCN1c2ncc(CCc3ccc(N(C)S(C)(=O)=O)cc3)cc2C(=O)N(C)c2ccc(Cl)nc21 | - | RT-Y181C | nucleotide incorporation / radiometric | - | 1 µM | 56%
Cc1cc(C)c2c(c1)N(C(C)C)C(=O)c1ccnnc1O2 | - | - | ELISA | - | 330 µM | 94%
O=C(O)CCc1ccnc2c1NC(=O)c1cccnc1N2C1CC1 | WT | - | - | - | 2 µM | 1%
O=C(c1ccc(Nc2ccnc3cc(Cl)ccc23)cc1)N1CCOCC1 | - | - | nucleotide incorporation | - | 100 µM | 22%
CCCCCN1C(=O)c2ccnnc2Oc2ccc(C)cc21 | - | - | ELISA | - | 330 µM | 35%
CC(C)Nc1cccnc1N1CCCN(C(=O)c2cc3ccccc3[nH]2)CC1 | - | - | nucleotide incorporation | - | 100 µM | 94%
Nc1cc(Cc2ccccc2)nc(SCCc2ccccc2)n1 | - | - | ELISA | - | 100 µM | 0%
O=C(c1cc2ccccc2[nH]1)N1CCN(c2ncccc2NCc2ccccc2)CC1 | - | - | nucleotide incorporation | - | 100 µM | 15%
Clc1cc(Cc2ccccc2)nc(SCCCc2ccccc2)n1 | - | - | ELISA | - | 100 µM | 0%
O=C(NCCc1c[nH]c2ccccc12)c1nc2ccccc2c(=O)[nH]1 | - | - | nucleotide incorporation / fluorescence | - | 100 µM | 37%
CC(C)Nc1cccnc1N(C)CCN(C)C(=O)c1cc2ccccc2[nH]1 | - | - | nucleotide incorporation | - | 100 µM | 83.5%
Cc1ccc2c(c1)N(CC(C)C)C(=O)c1ccnnc1O2 | - | - | ELISA | - | 330 µM | 71%
CCC(C)(C)c1cc2c(=O)cc(C(=O)OC)[nH]c2c2c(=O)cc(C(=O)OC)[nH]c12 | - | - | nucleotide incorporation | - | 100 µM | 40%
O=C(OC[C@H]1O[C@@H](OC(=O)c2cc(O)c(O)c(O)c2)[C@H](OC(=O)c2cc(O)c(O)c(O)c2)[C@@H](OC(=O)c2cc(O)c(O)c(O)c2)[C@@H]1OC(=O)c1cc(O)c(O)c(O)c1Oc1cc2c(c(O)c1O)-c1c(cc(O)c(O)c1O)C(=O)OC[C@H]1O[C@@H](OC(=O)c3cc(O)c(O)c(O)c3)[C@H](OC(=O)c3cc(O)c(O)c(O)c3)[C@@H](OC(=O)c3cc(O)c(O)c(O)c3)[C@@H]1OC2=O)c1cc(O)c(O)c(O)c1 | - | - | nucleotide incorporation | - | 20 µg/mL | 0%
CCOc1cc(-c2nccc3cc(OC)c(OC)cc23)cc(OCC)c1OCC | - | - | RT activity | 3 d | 1 µM | 38.9%
CCNc1cccnc1N1CCN(Cc2cc(C)c(SC)c(C)c2)CC1 | - | - | nucleotide incorporation | - | 100 µM | 30%
O=C(OC[C@H]1O[C@@H](OC(=O)c2cc(O)c(O)c(O)c2)[C@H](OC(=O)c2cc(O)c(O)c(O)c2)[C@@H](OC(=O)c2cc(O)c(O)c(O)c2)[C@@H]1OC(=O)c1cc(O)c(O)c(O)c1)c1cc(O)c(O)c(O)c1 | - | - | nucleotide incorporation | - | 20 µg/mL | 0%
CCNc1cccnc1N1CCN(CCCc2cc(C)c(O)c(C)c2)CC1 | - | - | nucleotide incorporation | - | 100 µM | 23%
COc1ccc2c(c1)N(CCCCl)C(=O)c1ccnnc1O2 | - | - | ELISA | - | 33 µM | 27%
Oc1ccc(-c2[nH]ncc2-c2ccccc2)c(O)c1 | - | - | nucleotide incorporation / fluorescence | - | 100 µM | 35%
CCN1c2ncccc2C(=O)Nc2c(COc3ccccc3)cc(=O)[nH]c21 | - | RT-Y181C | - | - | 20 µM | 1%
COc1ccc2cc3[n+](cc2c1OC)CCc1cc2c(cc1-3)OCO2 | - | - | nucleotide incorporation | - | 100 µM | 47%
CCN1c2ncccc2C(=O)Nc2c(C3OCCCO3)cc(OC)nc21 | - | RT-Y181C | - | - | 22 µM | 1%
COC(=O)COc1cccc2cnccc12 | - | - | nucleotide incorporation | - | 100 µM | 20%